Among the targets are ε (SARS-CoV-2); β (SARS-CoV-2); α (SARS-CoV-2); κ (SARS-CoV-2); ι (SARS-CoV-2).
What all share (assay): flow cytometry (Mock 2.5)
On the technique in general: Flow cytometry measures light scatter and fluorescence of single cells or particles in a stream.

Experiment [1] concerns the target SARS-CoV-2 δ variant spike protein, cell-expressed (SARS-CoV-2).

As to Sotrovimab (antibody), the log10 ΔgMFI with ε (SARS-CoV-2) was 4.2; with β (SARS-CoV-2) it was 3.7; with α (SARS-CoV-2) it was 4.1; with κ (SARS-CoV-2), 4.5; with ι (SARS-CoV-2), 4.7; in experiment [1], 4.3.

Source of the values: US20240336672A1.
